A mixed list of measured activities; the numbers were collected in NIAID ChemDB.

Shared fields: toxicity to cultured cells; cell line: CV-1; endpoint: CC50

CCn is the concentration with n% toxicity to the cells.

compound	read by	value
CCNc1nc(=O)c2ncn([C@@H]3O[C@H](CO)[C@@H](O)[C@H]3O)c2c(=O)[nH]1		>100 µM
Nc1ncnc2c1ncn2[C@@H]1C[C@H](N)[C@@H](O)[C@H]1O		>100 µg/mL
CCCc1cc(=O)oc2c3c(c4c(c12)OC(C)(C)C=C4)O[C@H](C)[C@H](C)C3=O	neutral red	14 µg/mL
Nc1ncnc2c1ncn2[C@H]1C[C@H](O)[C@H](O)[C@@H]1O		>100 µg/mL
O=C(OC[C@H]1O[C@@H](OC(=O)c2cc(O)c(O)c(O)c2)[C@H](O)[C@@H](OC(=O)c2cc(O)c(O)c(O)c2)[C@@H]1O)c1cc(O)c(O)c(O)c1		18 µg/mL
Nc1ncnc2c1ncn2[C@@H]1C[C@H](O)[C@@H](O)[C@H]1O		>100 µg/mL
Nc1nc(=O)c2ncn([C@@H]3O[C@H](CO)[C@@H](O)[C@H]3O)c2c(=O)[nH]1		>100 µM
C[C@@]1(O)[C@H](O)[C@@H](COP(=O)(O)OP(=O)(O)OP(=O)(O)O)O[C@H]1n1ccc2c(N)ncnc21		>320 µM
[N-]=[N+]=N[C@H]1C[C@@H](n2cnc3c(N)ncnc32)[C@H](O)[C@@H]1O		>100 µg/mL
O=C[C@H](OC(=O)c1cc(O)c(O)c(O)c1)[C@@H](OC(=O)c1cc(O)c(O)c(O)c1)[C@@H]1OC(=O)c2cc(O)c(O)c(O)c2-c2c(cc(O)c(O)c2O)C(=O)OC[C@H]1O		>30 µg/mL
CCCc1cc(=O)oc2cc(O)cc(O)c12		10 µg/mL
O=C(OC1OC2COC(=O)c3cc(O)c(O)c(O)c3-c3c(cc(O)c(O)c3O)C(=O)OC2C(OC(=O)c2cc(O)c(O)c(O)c2)C1OC(=O)c1cc(O)c(O)c(O)c1)c1cc(O)c(O)c(Oc2c(C(=O)OC3OC4COC(=O)c5cc(O)c(O)c(O)c5-c5c(cc(O)c(O)c5O)C(=O)OC4C(OC(=O)c4cc(O)c(O)c(O)c4)C3OC(=O)c3cc(O)c(O)c(O)c3)cc(O)c(O)c2O)c1		>30 µg/mL
CCCc1cc(=O)oc2c(C(=O)CC)c(O)c3c(c12)OC(C)(C)C=C3		80 µg/mL
COc1c2c(cc3oc(=O)c(-c4ccc(O)cc4O)cc13)OC(C)(CO)CC2		23 µg/mL
Nc1ncnc2c1ncn2[C@@H]1C=C[C@@H](O)[C@H]1O		100 µg/mL
CCCc1cc(=O)oc2cc(OC(=O)CC)cc(O)c12	neutral red	100 µg/mL
O=C1O[C@H]2[C@@H]3OC(=O)c4cc(O)c(O)c(O)c4-c4c(cc(O)c(O)c4O)C(=O)OC[C@H]2O[C@@H](OC(=O)c2cc(O)c(O)c(O)c2)[C@@H]3OC(=O)c2cc(O)c(O)c3c2[C@@H]2C1=CC(=O)[C@](O)(O3)C2(O)O		>30 µg/mL

Rows are shuffled and stem from different studies. Blank or dashed fields: not listed here.